Compound potency records, mixed from different reports. Data source: NIAID ChemDB in PubChem.

All rows: growth or infection tests; organism: Cryptococcus neoformans

Blank or dashed fields: not listed here.

SMILES | strain or isolate | endpoint | read by | result
O=c1snc(-c2ccccn2)n1-c1ccccc1 | - | MIC | - | 0.05 µg/mL
CN(CC#CC#CC(C)(C)C)c1cccc2c1CCC(=O)N2 | CY1059 | EC50 | - | >200 µg/mL
C[C@@H]1CCC2(OC1)OC1CC3C4C[C@H](O)[C@H]5C[C@@H](O)CC[C@]5(C)C4CC(=O)[C@]3(C)C1[C@@H]2C | ATCC 90113 | EC50 | - | 4.5 µg/mL
OB1OCc2ccc3ccccc3c21 | - | MIC | - | 32 µg/mL
CC1SC(c2ccccn2)N(C(C)C(=O)O)C1=O | - | EC50 | broth dilution | 43.16 µM
CCC(C)n1ncn(-c2ccc(N3CCN(c4ccc(OC[C@H]5CO[C@](Cn6cncn6)(c6ccc(Cl)cc6Cl)O5)cc4)CC3)cc2)c1=O | 9 strains | Geometric mean MIC | - | 0.46 µg/mL
O=C1C[C@@H](c2ccc(F)c(Cl)c2)Cc2cc(O)cc(O)c21 | Clinical isolate H99 | MIC | - | 31 µg/mL
O=C1OC(O)(c2ccccc2O)c2cccc3cccc1c23 | - | MIC | - | 18.7 µM
CCn1c(-c2ccccn2)nsc1=O | - | MIC | - | 0.06 µg/mL
O=C(O)C(Cc1ccccc1)N1C(=O)CSC1c1ccccn1 | - | EC50 | broth dilution | 15.16 µM
CC(=O)OCC1=C(C(=O)O)N2C(=O)C(NC(=O)CSC(=S)N3CCCCC3)C2SC1 | - | MIC | - | >250 µg/mL
CC1C(=O)N(Cc2ccccc2)C(=O)C1C | ATCC 32264 | MIC | broth dilution / turbidity | 125 µg/mL
C[C@@H](n1ncc2cccc([N+](=O)[O-])c21)[C@](O)(Cn1cncn1)c1ccc(F)cc1F | ATCC 24065 | MIC80 | - | 0.125 µg/mL
C[C@@H](N1CCN(Cc2cn(Cc3ccc(Cl)cc3Cl)c3ccccc23)CC1)[C@](O)(Cn1cncn1)c1ccc(F)cc1F | ATCC 36556 | MIC80 | resazurin | >128 µg/mL
O=CCSC(=S)NCc1ccccc1 | - | MIC | - | 2 µg/mL
CCn1c(-c2ccncc2)noc1=S | - | MIC | - | 0.95 µg/mL
COc1ccc(N2C(=O)C[C@@H](C)C2=O)cc1 | ATCC 32264 | MIC | broth dilution / turbidity | 62.5 µg/mL
NN(Cc1ccccc1)CC(O)(Cn1cncn1)c1ccc(F)cc1F | ATCC 24065 | MIC80 | - | 0.063 µg/mL
O=C1C[C@@H](c2cccc(O)c2)Cc2cc(O)cc(O)c21 | Clinical isolate H99 | MIC | - | >540 µg/mL
Cc1nn([C@H](C)[C@](O)(Cn2cncn2)c2ccc(F)cc2F)c2ccc([N+](=O)[O-])cc12 | ATCC 24065 | MIC80 | - | 0.25 µg/mL
Nc1[nH]c(=O)ncc1F | 37 strains | MIC90 | - | ≥32 µg/mL
COc1cnc2c3c(nccc13)C(=O)c1ccccc1-2 | ATCC 32264 | MIC | - | 0.2 µg/mL
C[C@@H](N1CCN(Cc2cn(Cc3cccc(C(F)(F)F)c3)c3c(F)cccc23)CC1)[C@](O)(Cn1cncn1)c1ccc(F)cc1F | ATCC 36556 | MIC80 | resazurin | >128 µg/mL
CC(=O)OCC1=C(C(=O)O)N2C(=O)C(NC(=O)CSC(=O)N3CCCCC3)C2SC1 | - | MIC | - | >250 µg/mL
Cn1c(-c2ccccc2)nsc1=O | - | MIC | - | 0.06 µg/mL
C=CCn1cc(CN2CCN([C@H](C)[C@](O)(Cn3cncn3)c3ccc(F)cc3F)CC2)c2ccc(Cl)cc21 | ATCC 36556 | MIC80 | resazurin | >128 µg/mL
CC1=C2C3=C4[C@](C)([C@@H]5C[C@@H]5[C@@]4(O)C[C@@H]4[C@]35OC(=O)C3=C5C[C@H]5[C@](O)(COC(=O)/C(C)=C/COC(=O)CCC(=O)OC3)[C@H]3C[C@H]3[C@]45C)[C@H](O)[C@]2(O)OC1=O | ATCC 22402 | MIC | broth dilution | 64 µg/mL
O=C(O)c1ccc(-c2nnn(CC#CI)n2)cc1 | CR-1 | MIC | - | 100 µg/mL
CCCS(=O)c1ccc2nc(NC(=O)OC)[nH]c2c1 | 2 isolates | MIC | - | >10 µg/mL
C[C@@H](N1CCN(Cc2cn(Cc3ccc(Cl)cc3Cl)c3c(Cl)cccc23)CC1)[C@](O)(Cn1cncn1)c1ccc(F)cc1F | ATCC 36556 | MIC80 | resazurin | >128 µg/mL
CCC(C)CC(C)CCCCCCCCC(=O)N[C@H]1C[C@@H](O)[C@H](NCCN)NC(=O)[C@@H]2[C@@H](O)CCN2C(=O)[C@H]([C@H](O)CCN)NC(=O)[C@H]([C@H](O)[C@@H](O)c2ccc(O)cc2)NC(=O)[C@@H]2C[C@@H](O)CN2C(=O)[C@H]([C@@H](C)O)NC1=O | 19 strains | MIC90 | - | 32 µg/mL
COC(=O)/C(C)=C1\C(=O)[C@H](O)[C@]2(C)C3=C1[C@]14OC(=O)C5=C1C[C@H]1[C@](O)(COC(=O)/C(C)=C/COC(=O)CCC(=O)OC5)[C@H]5C[C@H]5[C@]1(C)[C@@H]4C[C@]3(O)[C@H]1C[C@H]12 | ATCC 22402 | MIC | broth dilution | 16 µg/mL
CC(C)N=C(N)c1ccc2nc(-c3ccc4c(c3)Cc3cc(-c5nc6ccc(C(N)=NC(C)C)cc6[nH]5)ccc3-4)[nH]c2c1 | 9 strains | Geometric mean MIC | - | 1.03 µg/mL
CC(=O)OCC1=C(C(=O)O)N2C(=O)C(NC(=O)CSC(=S)N(C)Cc3ccccc3)C2SC1 | - | MIC | - | >250 µg/mL
COc1c(O)c2c(=O)cc(OC)c3c4c(OC)cc(=O)c5c(O)c(OC)c6c(c(c1CC(C)(O)C6C(C)=O)c23)c54 | - | MFC | - | >100 µg/mL
Cn1c(-c2ccccn2)nsc1=O | - | MIC | - | 0.06 µg/mL
C[C@@H](n1ncc2cc(N(C)C)ccc21)[C@](O)(Cn1cncn1)c1ccc(F)cc1F | ATCC 24065 | MIC80 | - | 0.25 µg/mL
C[C@H]1[C@H](O)[C@@H](C)/C=C/C=C/C=C/C=C/C=C/C=C/C=C/[C@H](O[C@@H]2O[C@H](C)[C@@H](O)[C@H](N)[C@@H]2O)C[C@@H]2O[C@](O)(C[C@@H](O)C[C@@H](O)CC[C@H](O)[C@@H](O)C[C@@H](O)CC(=O)O[C@H]1C)C[C@H](O)[C@H]2C(=O)O | 316 | MIC | - | 2 µg/mL
CC1CC(=O)N(CCCc2ccccc2)C1=O | ATCC 32264 | MIC | broth dilution / turbidity | 125 µg/mL
CN[C@@H]1[C@H](O[C@@H]2O[C@H](CO)[C@@H](O)[C@H](S(=O)(=O)O)[C@H]2O)[C@@H](O)[C@H](O[C@H]2c3cc(C)c(C(=O)N[C@H](CO)C(=O)O)c(O)c3-c3c(cc4c(c3O)C(=O)c3cc(OC)cc(O)c3C4=O)[C@@H]2O)O[C@@H]1C | D49 | MIC | - | 6.3 µg/mL
CC1=C2C[C@@H]3[C@](C)(CCC[C@@]3(C)O)C[C@]2(O)OC1=O | ATCC 22402 | MIC | broth dilution | >256 µg/mL
C[C@@H]1C(=O)N(CCCCc2ccccc2)C(=O)[C@@H]1C | ATCC 32264 | MIC | broth dilution / turbidity | 31.3 µg/mL
C[C@H]1[C@H](O)[C@@H](C)/C=C/C=C/C=C/C=C/C=C/C=C/C=C/[C@H](O[C@@H]2O[C@H](C)[C@@H](O)[C@H](N)[C@@H]2O)C[C@@H]2O[C@](O)(C[C@@H](O)C[C@@H](O)CC[C@H](O)[C@@H](O)C[C@@H](O)CC(=O)O[C@H]1C)C[C@H](O)[C@H]2C(=O)O | 19 strains | MIC50 | - | 0.25 µg/mL
CC1CC(=O)N(c2ccc(Br)cc2)C1=O | ATCC 32264 | MIC | broth dilution / turbidity | 125 µg/mL
C[C@@H](N1CCN(Cc2cn(Cc3ccc(F)cc3F)c3cc(Cl)ccc23)CC1)[C@](O)(Cn1cncn1)c1ccc(F)cc1F | ATCC 36556 | MIC80 | resazurin | >128 µg/mL
COc1cc(O)c2c(c1)C(=O)c1c(cc3c(c1O)-c1c(cc(C)c(C(=O)NC(CO)C(=O)O)c1O)[C@H](OC1OC(C)C(O)C(OC4OCC(O)C(O)C4O)C1O)C3O)C2=O | 32 isolates | MIC50 | - | 2 µg/mL
Cc1ccc(N2C(=O)CC(C)C2=O)cc1 | ATCC 32264 | MIC | broth dilution / turbidity | 62.5 µg/mL
C=C1/C=C(\C)[C@H](CC)OC(=O)[C@H](C)C(=O)C(O)(CO)C/C(OC)=C/[C@@H](C)C1 | MY1146 | MIC | - | 0.001 µg/mL
C[C@H]1[C@H](O)[C@@H](C)/C=C/C=C/C=C/C=C/C=C/C=C/C=C/[C@H](O[C@@H]2O[C@H](C)[C@@H](O)[C@H](N)[C@@H]2O)C[C@@H]2O[C@](O)(C[C@@H](O)C[C@@H](O)CC[C@H](O)[C@@H](O)C[C@@H](O)CC(=O)O[C@H]1C)C[C@H](O)[C@H]2C(=O)O | 901142 | MIC | broth dilution | 0.015 µg/mL
Cn1nc(Cc2ccc(Cl)cc2)c2ccccc2c1=O | Clinical isolate (IM 983040) | MIC50 | broth dilution | 3.9 µg/mL
CC(=O)OCC1=C(C(=O)O)N2C(=O)C(NC(=O)CSC(=O)N3CCOCC3)C2SC1 | - | MIC | - | >250 µg/mL
CCC(O)/C=C/C=C/C=C/C(=O)OC[C@H]1O[C@@H](O[C@H]2[C@H](OC(=O)/C=C/C=C/CC(O)/C(C)=C/C=C/CCC(C)CC)[C@@H](O)[C@@]3(OCc4cc(O)cc(O)c43)O[C@@H]2CO)[C@H](O)[C@@H](O)[C@H]1O | IAM 4514 | MIC | - | >100 µg/mL
C[C@@H]1CC(=O)N(CCCc2ccccc2)C1=O | ATCC 32264 | MIC | broth dilution / turbidity | 62.5 µg/mL
C[C@@H](n1ncn(-c2ccc(OCC(F)(F)C(F)F)cc2)c1=O)[C@](O)(Cn1cncn1)c1ccc(F)cc1F | DUMC 114.96 | MIC | - | 0.0625 µg/mL
CCC(C)c1ccc(Cn2cc(CN3CCN([C@H](C)[C@](O)(Cn4cncn4)c4ccc(F)cc4F)CC3)c3ccccc32)cc1 | ATCC 36556 | MIC80 | resazurin | >128 µg/mL
COC(=O)/C(C)=C1\C(=O)[C@H](O)[C@]2(C)C3=C(C[C@@H]4[C@]5(OC(=O)C6=C5C[C@H]5[C@](O)(COC(=O)/C(C)=C/COC(=O)CCC(=O)OC6)[C@H]6C[C@H]6[C@]45C)[C@H]31)[C@H]1C[C@H]12 | ATCC 22402 | MIC | broth dilution | 8 µg/mL
C[C@@H](n1ncc2cc(Cl)ccc21)[C@](O)(Cn1cncn1)c1ccc(F)cc1F | ATCC 24065 | MIC80 | - | 0.032 µg/mL
Cc1ccc(-n2c(-c3ccccc3)nsc2=S)cc1 | - | MIC | - | 0.04 µg/mL
C[C@@H](n1ncc2cc([N+](=O)[O-])ccc21)[C@](O)(Cn1cncn1)c1ccc(F)cc1F | ATCC 24065 | MIC80 | - | 0.063 µg/mL
S=c1onc(-c2ccccn2)n1-c1ccccc1 | - | MIC | - | 0.39 µg/mL
CC(C)CC(C(=O)O)N1C(=O)C(C)SC1c1ccccc1 | - | EC50 | broth dilution | 78.32 µM
C=C1C(NC(=O)COc2ccccc2)C2SC(C)(C)C(C=O)N12 | - | MIC | - | 50 µg/mL
CC1CC(=O)N(c2ccc(Cl)cc2)C1=O | ATCC 32264 | MIC | broth dilution / turbidity | 125 µg/mL
C[C@@H](N1CCN(Cc2cn(Cc3ccc(Cl)cc3Cl)c3ccc(C#N)cc23)CC1)[C@](O)(Cn1cncn1)c1ccc(F)cc1F | ATCC 36556 | MIC80 | resazurin | >128 µg/mL
O=C1C[C@@H](c2ccc(Cl)cc2)Cc2cc(O)cc(O)c21 | Clinical isolate H99 | MIC | - | 30 µg/mL

5 of the rows above, restated:

SMILES | strain or isolate | endpoint | read by | result
C[C@@H]1CC(=O)N(CCCc2ccccc2)C1=O | ATCC 32264 | MIC | broth dilution / turbidity | 62.5 µg/mL
O=C(O)C(Cc1ccccc1)N1C(=O)CSC1c1ccccn1 | - | EC50 | broth dilution | 15.16 µM
C[C@@H](n1ncc2cc(Cl)ccc21)[C@](O)(Cn1cncn1)c1ccc(F)cc1F | ATCC 24065 | MIC80 | - | 0.032 µg/mL
CCCS(=O)c1ccc2nc(NC(=O)OC)[nH]c2c1 | 2 isolates | MIC | - | >10 µg/mL
C=C1C(NC(=O)COc2ccccc2)C2SC(C)(C)C(C=O)N12 | - | MIC | - | 50 µg/mL

MIC50, MIC90 and the like: level of inhibition, or share of isolates inhibited. ECn is the concentration giving n% inhibition of infection, replication or growth. Neighbouring rows are from separate reports.